A mixed list of measured activities; the numbers were collected in NIAID ChemDB.

Common to all: growth or infection tests; organism: Hepatitis C virus

Fold resistance has wild type as its base. Inhibition is in % at the dose shown (toxicity tests: loss of growth or viability). ECn: concentration that inhibits the pathogen or its effect by n%. Neighbouring rows are from separate reports. Two numbers with a dash give a range or band.

CC1(C)CC(=O)C2=C(C1)Nc1c(O)cccc1N(C(=O)CCC#N)C2c1ccc(OCc2ccccc2)cc1F ; strain: 1b ; method: luciferase / reporter gene / replicon ; read-out: EC50 ; value: 0.77 µM
COC(=O)N[C@H](C(=O)N1CCC[C@H]1c1ncc(-c2ccc(-c3ccc(-c4cnc([C@@H]5CCCN5C(=O)[C@@H](NC(=O)OC)C(C)C)[nH]4)cc3)cc2)[nH]1)C(C)C ; strain: 1a ; changes: L31V ; cell line: Lunet ; method: luciferase ; read-out: EC50 ; value: 0.018 µM
CC(=O)OC[C@]12[C@H](OC(C)=O)[C@H](OCc3ccccc3)[C@@H]3[C@@H](OC(C)=O)[C@@]14O[C@@]3(C)COC(=O)c1cccnc1C(C)C(C)C(=O)O[C@@H]([C@H](OC(C)=O)[C@@H]2OC(C)=O)[C@]4(C)O ; strain: Subgenomic replicon S52 ; changes: P1220S D1430H S2204I ; cell line: Huh7.5 ; method: luciferase ; read-out: inhibition ; tested at: 50 µM ; value: 87%
NC(=S)Nc1ccc2c(c1)Cc1cc(NCc3ccccc3)ccc1-2 ; cell line: Ava5-EG(delta4AB)SEAP ; method: reporter gene / fluorescence ; read-out: EC50 ; value: 0.001–1 µM
CC1CCC(C(=O)N(c2cc(C#CC(C)(C)C)sc2C(=O)O)C2CCC(O)CC2)CC1 ; strain: Con1 (gt 1b) ; changes: L419M ; cell line: Huh7 ; method: luciferase ; read-out: fold resistance ; value: 127.7
O=C(N[C@@H](C(=O)N1CCC[C@H]1c1ncc(-c2ccc(-c3ccc(-c4cnc([C@@H]5CCCN5C(=O)[C@H](NC(=O)C5CC5)c5ccccc5)s4)cc3)cc2)s1)c1ccccc1)C1CC1 ; strain: genotype 2a JFH1 ; cell line: Huh7.5 ; method: luciferase ; read-out: EC50 ; value: 0.0002288 µM
Cc1cc(OCc2ccccc2)ccc1C1C2=C(CC(C)(C)CC2=O)Nc2c(O)cccc2N1C(=O)CC#N ; strain: 1b ; method: luciferase / reporter gene / replicon ; read-out: EC50 ; value: 1.83 µM
CCc1ccc(CN2CCC(C(=O)Nc3ccc(-c4nc5ccccc5[nH]4)cc3)CC2)o1 ; strain: JFH-1 ; cell line: Huh7 ; method: PCR ; read-out: inhibition ; tested at: 5 µM ; value: ≥40%
CC(=O)N1c2cccc(O)c2NC2=C(C(=O)CC(C)(C)C2)C1c1ccc(Cl)cc1F ; strain: 1b ; method: luciferase / reporter gene / replicon ; read-out: EC50 ; value: 1.64 µM
O=C(Nc1cccnc1Oc1ccccc1)C1CCN(Cc2ccc(-c3ccc(Cl)s3)cc2)CC1 ; strain: JFH-1 ; cell line: Huh7 ; method: PCR ; read-out: inhibition ; tested at: 5 µM ; value: ≥40%
NC(=S)Nc1cccc(OCCCCCOc2cccc3cnccc23)c1 ; cell line: Ava5-EG(delta4AB)SEAP ; method: reporter gene / fluorescence ; read-out: EC50 ; value: 0.001–1 µM
Cc1oc(C(C)C)nc1C(=O)N1c2cccc(O)c2NC2=C(C(=O)CC(C)(C)C2)C1c1ccc(OCc2ccccc2)cc1F ; strain: 1b ; method: luciferase / reporter gene / replicon ; read-out: EC50 ; value: 6.56 µM
O=C(Nc1cccc(-c2cccc(F)c2)c1)C1CCN(Cc2ccc(O)cc2)CC1 ; strain: JFH-1 ; cell line: Huh7 ; method: PCR ; read-out: inhibition ; tested at: 5 µM ; value: ≥40%
CCCCCNC(=S)Nc1cccc(OCCCCCc2ccccc2)c1 ; cell line: Ava5-EG(delta4AB)SEAP ; method: reporter gene / fluorescence ; read-out: EC50 ; value: 0.001–1 µM
O=C(Nc1cccc(-c2cscn2)c1)C1CCN(Cc2cccc(-c3ccco3)c2)CC1 ; strain: JFH-1 ; cell line: Huh7 ; method: PCR ; read-out: inhibition ; tested at: 15 µM ; value: ≥40%
CC(C)(CCOc1ccc(-c2ccccc2)cc1)CCOc1cccc(NC(N)=S)c1 ; cell line: Ava5-EG(delta4AB)SEAP ; method: reporter gene / fluorescence ; read-out: EC50 ; value: 0.001–1 µM
COc1cccc(-c2ccccc2NC(=O)C2CCN(Cc3ccc(F)cc3OC)CC2)c1 ; strain: JFH-1 ; cell line: Huh7 ; method: PCR ; read-out: inhibition ; tested at: 15 µM ; value: ≥40%
C=CCCC(=O)N1c2cccc(O)c2NC2=C(C(=O)CC(C)(C)C2)C1c1ccc(Cl)cc1Cl ; strain: 1b ; method: luciferase / reporter gene / replicon ; read-out: EC50 ; value: 3.38 µM
COc1cc([C@H]2O[C@@H](c3cc(OC)c4c(c3)OCO4)[C@@H](C)[C@@H]2C)cc2c1OCO2 ; strain: Subgenomic replicon JFH-1 ; cell line: Huh7.5 ; method: luciferase ; read-out: inhibition ; tested at: 25 µM ; value: 87%
O=C(Nc1cccc(-c2cc3ccccc3[nH]2)c1)C1CCN(COc2cncs2)CC1 ; strain: JFH-1 ; cell line: Huh7 ; method: PCR ; read-out: inhibition ; tested at: 15 µM ; value: ≥40%
CC1(C)CC(=O)C2=C(C1)Nc1c(O)cccc1NC2c1ccc(OCc2ccccc2Cl)cc1Cl ; strain: 1b ; method: luciferase / reporter gene / replicon ; read-out: EC50 ; value: 2.14 µM